# Publication PMC9239164
# Construct, isoform or probe ends are uncertain for at least one entry. Protein sequences can lack the tags named with them.
# Molecular target: T1, MBP-IE2 DBD (UniProt Q6SWP7)
# T1 sequence (looked up): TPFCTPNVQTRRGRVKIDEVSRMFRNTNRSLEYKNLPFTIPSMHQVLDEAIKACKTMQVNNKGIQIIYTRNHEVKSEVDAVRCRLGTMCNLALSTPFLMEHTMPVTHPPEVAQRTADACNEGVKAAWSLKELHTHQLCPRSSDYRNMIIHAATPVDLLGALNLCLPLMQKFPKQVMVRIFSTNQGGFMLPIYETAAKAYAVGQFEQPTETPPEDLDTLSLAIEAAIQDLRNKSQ
# Experiment: EMSA (silver stain, native PAGE)
# Details: 300 nM DBD, probe titrated 2.5-7500 nM; 25 mM HEPES pH 7.8, 100 mM NaCl, 0.01% Triton X-100, 1 mM DTT, room temperature 10 min; 4% native PAGE in 0.5x Tris-glycine; recombinant protein; residues 346-579; protein details: N-terminal MBP-linker-TEV site, C-terminal 6xHis; label: none (silver stain)
sequence,measurement,value
GTCCGGTTTGCAAACCGTAG (double strand) [ideal palindromic IE2 site probe],binding result,binds
